Pooled drug test results. Numbers come from NIAID ChemDB, via PubChem.

All rows: tests on isolated targets; agent: HIV-1; target: Integrase; read-out: IC50

ICn is the concentration giving n% inhibition. Rows are shuffled and stem from different studies. a–b is a range or a potency band.

smiles	read by	result
CCN1CCn2c(nc(C(=O)NCc3ccc(F)cc3)c(O)c2=O)C(N(C)C(=O)C(=O)N(C)C)C1	ELISA	<10 µM
O=c1c(-c2ccccn2)cn2ccn(Cc3ccc(F)cc3)c(=O)c2c1O	ELISA	0.01–0.1 µM
O=C1c2c(O)c(=O)n(C3CCN(CC4CC4)CC3)c(=O)n2CCN1Cc1ccc(F)cc1	strand transfer	<10 µM
CCC(=O)c1cn2ccn(Cc3cccc(Cl)c3)c(=O)c2c(O)c1=O	ELISA	<0.01 µM
CC1c2nc(C(=O)NCc3ccc(F)cc3)c(O)c(=O)n2CCN1Cc1cocn1	ELISA	<10 µM
CN(CCOc1ccc(Cl)cc1Cc1ccccc1)C(=O)/C=C(\O)C(=O)O	strand transfer	<70 µM
CN1CCn2c(nc(C(=O)NCc3ccc(F)cc3)c(O)c2=O)C(N(C)S(=O)(=O)N(C)C)C1	ELISA	<10 µM
O=c1c(-c2cccc(Cl)c2)cn2ccn(Cc3cccc(Cl)c3)c(=O)c2c1O	ELISA	0.01–0.1 µM
CC1(C)NCCn2c1nc(C(=O)NCc1ccc(F)cc1)c(O)c2=O	ELISA	<10 µM
O=C1c2c(O)c(=O)n(C3CCCCC3)c(=O)n2CCN1Cc1ccc(F)cc1	strand transfer	<10 µM
CC(C)(C)c1ccc(CNC(=O)/C=C(\O)C(=O)O)cc1	strand transfer	>70 µM
O=C(NCc1ccc(F)cc1)c1nc2n(c(=O)c1O)CCN(Cc1ccccc1)C2	ELISA	<10 µM
O=C(O)/C(O)=C/C(=O)N(Cc1ccc(F)cc1)CC1CC1c1ccccc1	strand transfer	<70 µM
O=C(Nc1cn2ccn(Cc3cccc(Cl)c3)c(=O)c2c(O)c1=O)c1cccnc1	ELISA	<0.01 µM
CC(C)(C)C1CCC(n2c(=O)c(O)c3n(c2=O)CCN(Cc2ccc(F)cc2)C3=O)CC1	strand transfer	<10 µM
Cn1cccc1C(=O)Nc1cn2ccn(Cc3cccc(Cl)c3)c(=O)c2c(O)c1=O	ELISA	<0.01 µM
CN(Cc1cccc(Cc2ccc(F)cc2)c1)C(=O)/C=C(\O)C(=O)O	strand transfer	<70 µM
CC(C)CC(=O)c1cn2ccn(Cc3ccc(F)cc3)c(=O)c2c(O)c1=O	ELISA	0.01–0.1 µM
O=C1c2c(O)c(=O)n(CC3CCCN(c4ncccn4)C3)c(=O)n2CCN1Cc1ccc(F)cc1	strand transfer	<10 µM
O=C1c2c(O)c(=O)ccn2CC(Cc2ccccc2)N1Cc1ccc(Cl)c(Cl)c1	ELISA	0.01–0.1 µM
O=C(O)/C(O)=C/C(=O)N(CCOc1ccc(F)cc1)Cc1ccc(F)cc1	strand transfer	<70 µM

2 of the rows above, restated:

smiles,read by,result
O=C1c2c(O)c(=O)n(C3CCCCC3)c(=O)n2CCN1Cc1ccc(F)cc1,strand transfer,<10 µM
CC(C)(C)c1ccc(CNC(=O)/C=C(\O)C(=O)O)cc1,strand transfer,>70 µM